Compound potency records, mixed from different reports. Data source: NIAID ChemDB in PubChem.

Shared fields: growth or infection tests; organism: Varicella zoster virus; cells: HEL; endpoint: EC50

Blank or dashed fields: not listed here. ECn: concentration that inhibits the pathogen or its effect by n%. Lines come from different laboratories, so protocols vary.

smiles | strain | read by | value
COc1ccc(CSCc2cnc3c(Br)cc(Br)c(C)n23)cc1 | YS/R (TK-) | plaque count | >20 µg/mL
NC1=NS(=O)(=O)N(Cc2ccccc2)c2nc(-c3ccc(Cl)cc3)[nH]c21 | 07/1 (TK-) | plaque count | >5 µg/mL
CCCCCCCOc1ccc(-c2cc3cn([C@H]4C[C@H](O)[C@@H](CO)O4)c(=O)nc3o2)cc1 | OKA | cytopathic effect | <0.5 µM
Nc1nc2c(ncn2COC(CO)CO)c(=O)[nH]1 | 9/84-C | cytopathic effect / ELISA | 51 µM
O=c1nc2oc(-c3ccc(Cl)cc3)cc2cn1[C@H]1C[C@H](O)[C@@H](CO)O1 | OKA | cytopathic effect | 0.5 µM
Nc1ncnc2c1ncn2CC[C@H](O)CCO | OKA | cytopathic effect | >400 µg/mL
O=c1[nH]c(=O)n([C@@H]2O[C@H](CO)[C@@H](O)[C@@H]2O)cc1/C=C/Br | YS/R (TK-) | plaque count | >57 µM
CCCCCCCC/C=C/CCCCCCCC(=O)O | 07/1 (TK-) | cytopathic effect | >100 µM
CC1(C)[C@@H](CCO)C[C@H]1n1cnc2c(=O)[nH]c(N)nc21 | TK+/YS | plaque count | >50 µg/mL
Nc1ncnc2c1ncn2C[C@@H](CO)OCP(=O)(O)O | Oka CF1743-resistant | cytopathic effect | 0.018 µM
Cc1c(Br)cc(Br)c2ncc(CSCc3cccc(C(F)(F)F)c3)n12 | OKA (TK+) | plaque count | >5 µg/mL
COC(=O)[C@H](C)NP(=O)(OC[C@H]1O[C@@H](n2cc(/C=C/Br)c(=O)[nH]c2=O)C[C@@H]1O)Oc1ccccc1 | YS | cytopathic effect | 0.26 µM
Nc1nc(=O)n([C@@H]2O[C@H](CO)[C@@H](O)[C@@H]2F)cc1I | 13 isolates | plaque count | 0.13 µM
O=C(O)CP(=O)(O)O | YS-W3 G19 H3 | plaque count | 3.7 µg/mL
Cc1cccn2c(CSCc3ccccc3)cnc12 | 07/1 (TK-) | plaque count | 0.4 µg/mL
CC1(C)[C@@H](CCO)C[C@H]1n1cnc2c(N)ncnc21 | TK+/YS | plaque count | >20 µg/mL
O=c1[nH]c(=O)n([C@H]2C[C@H](O)[C@@H](CO)O2)cc1/C=C/Br | YS (TK+) | plaque count | 0.0045 µM
Nc1nc2c(ncn2CC[C@H](O)CCO)c(=O)[nH]1 | 07/1 (TK-) | cytopathic effect | >400 µg/mL
CCCCCOc1ccc(-c2cc3cn([C@H]4C[C@H](O)[C@@H](CO)O4)c(=O)nc3o2)cc1 | YS | cytopathic effect | <0.5 µM
O=c1[nH]c(=O)n([C@H]2C[C@H](O)[C@@H](CO)O2)cc1-c1ccc(Br)s1 | 13 isolates | plaque count | 0.2 µM
OC[C@H]1O[C@@H](c2cc(C(O)CBr)c(F)cc2F)C[C@@H]1O | YS/R (TK-) | plaque count | >20 µg/mL
Cc1cn(CC[C@H](O)CCO)c(=O)[nH]c1=O | 07/1 (TK-) | cytopathic effect | >400 µg/mL
O=c1[nH]c(=O)n([C@@H]2O[C@H](CO)[C@@H](O)[C@@H]2O)cc1/C=C/Br | Oka PMEA-resistant | cytopathic effect | 0.0003 µM
CCCCCCCC/C=C/CCCCCCCC(=O)OCC(CO)OCn1cnc2c(=O)[nH]c(N)nc21 | 07/1 (TK-) | cytopathic effect | 37 µM
O=c1[nH]c(=O)n([C@H]2C[C@H](O)[C@@H](CO)O2)cc1I | 9/84 | cytopathic effect / ELISA | 9.3 µM
COC(=O)[C@H](C)NP(=O)(OC[C@H]1O[C@@H](n2cc(/C=C/Br)c(=O)[nH]c2=O)C[C@@H]1O)Oc1ccc(Cl)cc1 | YS (TK-) | cytopathic effect | >20 µM
Nc1nc2c(ncn2CCC(CO)CO)c(=O)[nH]1 | Clinical isolate VZV-28 | cytopathic effect | 4.35 µM
Cc1ccn2c(C3OCCS3)cnc2c1 | Strain 07/1 |  | >1000 µM
O=c1[nH]c(=O)n([C@H]2C[C@H](O)[C@@H](CO)O2)cc1/C=C/Cl | OKA (TK+) | plaque count | 0.024 µM
Cc1cccn2c(C3OCCS3)cnc12 | YS/R |  | >1000 µM
NC1=NS(=O)(=O)N(Cc2ccccc2)c2nc(Cc3ccccc3)[nH]c21 | OKA | plaque count | 12 µg/mL
Cc1cccn2c(C3SCCS3)cnc12 | OKA |  | >1000 µM
Cc1c(Br)cc(Br)c2ncc(CSCc3cccs3)n12 | YS/R (TK-) | plaque count | >2 µg/mL
O=c1[nH]c(=O)n([C@H]2C[C@H](O)[C@@H](CO)O2)cc1I | YS-V10 H12 | plaque count | 0.3 µg/mL
Nc1nc(=O)n([C@H]2C[C@H](O)[C@@H](CO)O2)cc1/C=C/Cl | YS (TK+) | plaque count | 0.054 µM
CC1(C)[C@@H](CCO)C[C@H]1n1cnc2c(=O)[nH]cnc21 | (TK+)/OKA | plaque count | >50 µg/mL
OC[C@H]1O[C@@H](c2cc(C(O)CI)c(F)cc2F)C[C@@H]1O | 07/1 (TK-) | plaque count | 50 µg/mL
Nc1ncnc2c1ncn2[C@@H]1C=C(CO)[C@@H](O)[C@H]1O | OKA YS | cytopathic effect | 10 µg/mL
O=C(O)CP(=O)(O)O | YS (TK+) | plaque count | 35 µM
Nc1nc2c(ncn2CC(CO)CCO)c(=O)[nH]1 | 9/84 + PER + ULF + BIR + Y | cytopathic effect / ELISA | 1.7 µM
O=c1[nH]c(=O)n([C@H]2C[C@H](O)[C@@H](CO)O2)cc1/C=C/Br | 07/1 (TK-) | cytopathic effect | >150 µM
Nc1ccn(CC[C@H](O)CCO)c(=O)n1 | YS | cytopathic effect | >400 µg/mL
CC1(C)[C@@H](CCO)C[C@H]1n1nnc2c(Cl)nc(N)nc21 | (TK-)07/1 | plaque count | >20 µg/mL
CCOc1ccc(-c2cc3cn([C@H]4C[C@H](O)[C@@H](CO)O4)c(=O)nc3o2)cc1 | YS | cytopathic effect | <0.5 µM
O=C(O)P(=O)(O)O | Oka PFA-resistant/B | cytopathic effect | 274 µM
Nc1nc2c(ncn2CCC(CO)CO)c(=O)[nH]1 | YS/R (TK-) | plaque count | >194 µM
O=c1[nH]c(=O)n([C@H]2C[C@H](O)[C@@H](CO)O2)cc1/C=C/Br | 9/84 | cytopathic effect / ELISA | 0.7 µM
Cc1ccn2c(C3OCCO3)cnc2c1 | OKA |  | >1000 µM
Cc1cccc(CSCc2cnc3c(Br)cc(Br)c(C)n23)c1 | YS/R (TK-) | plaque count | 6.2 µg/mL

Repeating the final 4 entries:

smiles,strain,read by,value
Nc1nc2c(ncn2CCC(CO)CO)c(=O)[nH]1,YS/R (TK-),plaque count,>194 µM
O=c1[nH]c(=O)n([C@H]2C[C@H](O)[C@@H](CO)O2)cc1/C=C/Br,9/84,cytopathic effect / ELISA,0.7 µM
Cc1ccn2c(C3OCCO3)cnc2c1,OKA,,>1000 µM
Cc1cccc(CSCc2cnc3c(Br)cc(Br)c(C)n23)c1,YS/R (TK-),plaque count,6.2 µg/mL